Anti-infective test results gathered from many reports (values: NIAID ChemDB through PubChem).

Common to all: cytotoxicity tests; cell line: VERO; measure: CC50

CCn is the concentration with n% toxicity to the cells. Neighbouring rows are from separate reports.

smiles	value
CSc1nsc(-c2ccc[n+](C)c2)c1C#N	1250 µM
CC/C=C/C/C=C/C/C=C/CCCCCCCC(=O)NC(C)(C)C(=O)N1C[C@@H](O)C[C@H]1C(=O)N[C@@H](CC(C)C)C(=O)N[C@H](C(=O)N[C@@H](CCC(N)=O)C(=O)N[C@@H](CC(C)C)C(=O)OC)C(C)C	>42 µM
C[C@@H]1CC[C@H]2C(C)(C)[C@H](O)CC[C@]2(C)C12Cc1c(O)cc3c(c1O2)COC3=O	>50 µg/mL
O=C(c1ccccc1)c1nc2ccccc2o1	125 µg/mL
Cc1nc(N(C)C(=O)Nc2ccc(N3CCOCC3)cc2)sc1S(=O)(=O)N(C)C	262.5 µM
[N-]=[N+]=Nc1c(-c2ccccc2)c(-c2ccccc2)n(COCCO)c1-c1ccccc1	65 µM
Cc1cn2c(C(=O)NCc3ccc(N4CCN(c5ccc(S(F)(F)(F)(F)F)cc5)CC4)c(F)c3)c(C)nc2s1	>32 µM
CC(=O)c1ccc(-c2cc(C(F)(F)F)nc3c(C(F)(F)F)cccc23)cc1	>128 µM
COc1cc([C@](O)(CCN(C)C)[C@@H](c2cc3cc(Br)ccc3nc2OC)c2cccc(OC)c2F)cnc1OC	>10 µg/mL
O=C1C=C(Nc2ccc(Br)cc2)c2ccccc2C1=O	>10 µg/mL
CCOC(=O)c1c([N+](=O)[O-])c(-c2ccccc2)n(COCCOC(C)=O)c1C	169 µM
COc1cccc([C@H](c2cc3cc(Br)ccc3nc2OC)[C@@](O)(CCN(C)C)c2cc(C)ccn2)c1F	>10 µg/mL
CC(=O)Oc1c(C)c(O)c(C(C)=O)c2c1C1(C)C(=O)C(C(C)=O)=C(O)C=C1O2	7.2 µg/mL
Clc1ccc(/C(Cn2ccnc2)=N\OCc2ccc(-c3ccccc3)cc2)cc1	6 µg/mL
NC(=S)N/N=C/c1ccc2oc3ccccc3c2c1	19.81 µg/mL
Cc1ccn2c(C(=O)NCc3ccc(N4CCN(c5ccc(C(F)(F)F)cc5)CC4)c(F)c3)c(C)nc2c1	>32 µM
CC[C@H](CC[C@@H](C)[C@H]1CC[C@H]2[C@@H]3C(=O)C=C4C[C@@H](O)CC[C@]4(C)[C@H]3CC[C@]12C)C(C)C	>102 µg/mL
CSc1nsc(-c2ccc(OCc3ccccc3)cc2)c1C#N	>50 µM
NC(=O)CN1CCCC[C@H]1[C@@H](O)c1cc(C(F)(F)F)nc2c(C(F)(F)F)cccc12	>128 µM
O=C(c1ccccc1)c1nc2ccccc2s1	62 µg/mL
CCOC(=O)c1c([N+](=O)[O-])c(-c2ccccc2)n(COCCO)c1-c1ccccc1	163 µM
N#Cc1c(-c2ccccc2)nsc1Cl	20 µM
Clc1ccc(/C(Cn2ccnc2)=N\OC/C=C/c2ccccc2)c(Cl)c1	6 µg/mL
O=C1C=C(Nc2ccccc2C(=O)CC(=O)C(=O)Nc2ccc(Cl)c(Cl)c2)c2ccccc2C1=O	9.48 µg/mL
CCCCCCCCCCCCCC(=O)N[C@H](C)C(=O)N1C[C@@H](O)C[C@H]1C(=O)N[C@@H](CC(C)C)C(=O)N[C@H](C(=O)N[C@@H](CCC(N)=O)C(=O)N[C@@H](CC(C)C)C(=O)OC)C(C)C	48 µM
CN(C(=O)Nc1ccc(N2CCOCC2)cc1)c1nc(Cl)c(S(=O)(=O)N(C)C)s1	250 µM
CCCCCCCCCC(=O)NC(C)(C)C(=O)N1C[C@@H](O)C[C@H]1C(=O)N[C@@H](CC(C)C)C(=O)N[C@H](C(=O)N[C@@H](CCC(N)=O)C(=O)N[C@@H](CC(C)C)C(=O)OC)C(C)C	59 µM
CCCCOc1ccc(-c2snc(SC)c2C#N)cc1	>50 µM
CCCCCCCCCCCCCCCCC(=O)OC[C@H]1O[C@@H](O[C@H]2CC[C@@]3(C)C(=CC[C@H]4[C@@H]5CC[C@H]([C@H](C)CC[C@@H](CC)C(C)C)[C@@]5(C)CC[C@@H]43)C2)[C@H](O)[C@@H](O)[C@@H]1O	>102 µg/mL
CC(C)O[C@@H]1[C@H](OC(C)C)[C@@H](COS(=O)(=O)NC(=O)O[C@H]2O[C@H](COC(=O)c3ccccc3)[C@H](OC(=O)c3ccccc3)[C@H](OC(=O)c3ccccc3)[C@H]2OC(=O)c2ccccc2)O[C@H]1n1ccc(=O)[nH]c1=O	150 µg/mL
C/C(=C\CC/C(C)=C/Cc1cc(O)cc(C)c1O)CC/C=C(\C)CC[C@@H](C)C(C)(C)O	8.9 µM
Cc1cn2c(C(=O)NCc3ccc(Oc4ccc(C(F)(F)F)cc4)cc3)c(C)nc2s1	>32 µM
COc1cccc([C@H](c2cc3cc(Br)ccc3nc2OC)[C@@](O)(CCN(C)C)c2cnc(C)c(C)c2)c1OC	>10 µg/mL
CSC(=S)N/N=C(/C)Cc1ccccn1	5.1 µg/mL
CC(=O)N[C@H]1[C@@H](OC(=O)NS(=O)(=O)OC[C@H]2O[C@@H](n3ccc(=O)[nH]c3=O)[C@H](OC(C)C)[C@@H]2OC(C)C)O[C@H](COC(C)=O)[C@@H](OC(C)=O)[C@@H]1OC(C)=O	100 µg/mL
COc1cccc([C@H](c2cc3cc(Br)ccc3nc2OC)[C@@](O)(CCN(C)C)c2ncc(C)cc2C)c1F	>10 µg/mL
CC(=O)OCCOCn1c(-c2ccccc2)c(C#N)c([N+](=O)[O-])c1-c1ccccc1	>300 µM
Cc1cn2c(C(=O)NCc3ccc(N4CCSCC4)c(F)c3)c(C)nc2s1	>32 µM
CCN(CC)C(=S)S.CCNCC	4.3 µg/mL
CC[C@H](CC[C@@H](C)[C@H]1CC[C@H]2[C@@H]3C[C@@H](O)C4=CC(=O)CC[C@]4(C)[C@H]3CC[C@]12C)C(C)C	>102 µg/mL
CCCCC/C=C/C/C=C/CCCCCCCC(=O)NC(C)(C)C(=O)N1C[C@@H](O)C[C@H]1C(=O)N[C@@H](CC(C)C)C(=O)N[C@H](C(=O)N[C@@H](CCC(N)=O)C(=O)N[C@@H](CC(C)C)C(=O)OC)C(C)C	28 µM
CCOC(=O)c1c(Cl)c(-c2ccccc2)n(COCCO)c1C	111 µM
Fc1ccc(/C(Cn2ccnc2)=N/OCc2cccc3ccccc23)cc1	6 µg/mL
CN(C)c1ccc2nc3ccc(=O)cc-3sc2c1	0.98 µg/mL
Cc1cn2c(C(=O)NCc3ccc4c(c3)CCO4)c(C)nc2s1	>32 µM
FC(F)(F)c1cc(N2CCOCC2)c2cccc(C(F)(F)F)c2n1	>128 µM
Cc1csc(N=Nc2ccc(N(C)C)cc2)[n+]1[O-]	>10 µg/mL
CSc1nsc(-c2cccc3ccccc23)c1C#N	4 µM
O=P(O)(O)Oc1c(O)c2ccccc2c2ccccc12	0.38 µg/mL
CCCCCCCCCCCCCCCCCCCC[C@@H](O)C(=O)N[C@@H](CO)[C@H](O)[C@H](O)CCCCCCCCCCCCCC	>102 µg/mL
Clc1ccc(/C(Cn2ccnc2)=N/OCc2cccc3ccccc23)cc1	3 µg/mL
COc1cccc([C@H](c2cc3cc(Br)ccc3nc2OC)[C@@](O)(CCN(C)C)c2cc(C)cc(C)n2)c1F	>10 µg/mL
CCCCCCCCCCCCCCCCCCCCCC[C@@H](O)C(=O)N[C@@H](CO)[C@H](O)[C@H](O)CCCCCCCCCCCCCC	>102 µg/mL
Cc1cc(NCCCCCCCCNc2cc(C)nc3cc(N(C)C)ccc23)c2ccc(N(C)C)cc2n1	3.3 µg/mL
O[C@@H](c1cc(C(F)(F)F)nc2c(C(F)(F)F)cccc12)[C@@H]1CCCCN1Cc1ccncc1	35 µM
C=CCCCCn1c2ccccc2c2c(C)c3c[n+](C)ccc3c(C)c21	5 µg/mL
CCCCCCCCCCCCCC(=O)NC(C)(C)C(=O)N1C[C@@H](O)CC1C(=O)N[C@@H](CC(C)C)C(=O)N[C@H](C(=O)N[C@@H](CCC(N)=O)C(=O)N[C@H](CO)CC(C)C)C(C)C	4 µM
CC(C)OC1[C@H](n2ccc(=O)[nH]c2=O)O[C@H](COS(=O)(=O)NC(=O)N[C@@H]2O[C@H](COC(=O)c3ccccc3)[C@@H](OC(=O)c3ccccc3)[C@H](OC(=O)c3ccccc3)[C@H]2OC(=O)c2ccccc2)[C@H]1OC(C)C	300 µg/mL
CO[C@H]1/C=C/O[C@@]2(C)Oc3c(C)c(OC(C)=O)c4c(c3C2=O)C(=O)C=C(NC(=O)/C(C)=C\C=C\[C@H](C)[C@H](O)[C@@H](C)[C@@H](O)[C@@H](C)[C@H](OC(C)=O)[C@@H]1C)C4=O	1.73 µg/mL
COc1cccc([C@H](c2cc3cc(Br)ccc3nc2OC)[C@@](O)(CCN(C)C)c2ncccc2C)c1F	>10 µg/mL
Nc1c(-c2ccccc2)c(-c2ccccc2)n(COCCO)c1-c1ccccc1	42 µM
Nc1c(-c2c(Cl)cccc2Cl)[n+]([O-])c2ccccc2[n+]1[O-]	4.69 µg/mL
CC(C)O[C@@H]1[C@H](OC(C)C)[C@@H](COS(=O)(=O)NC(=O)O[C@H]2O[C@H](COCc3ccccc3)[C@@H](OCc3ccccc3)[C@H](OCc3ccccc3)[C@H]2OCc2ccccc2)O[C@H]1n1ccc(=O)[nH]c1=O	100 µg/mL
Nc1ccn(C[C@@H](CO)OCP(=O)(O)O)c(=O)n1	100 µg/mL
COC(=O)N1c2ccccc2N(C(=O)OC)c2c1oc1ccccc1c2=O	>12.5 µg/mL
Clc1ccc(/C(Cn2ccnc2)=N/OC/C=C/c2ccccc2)cc1	3 µg/mL
S=C(S)NN1CCCC1	<0.41 µg/mL
COc1ccnc([C@](O)(CCN(C)C)[C@@H](c2cc3cc(Br)ccc3nc2OC)c2cccc(OC)c2F)c1	>10 µg/mL
OC(c1ccccc1)c1nc2ccccc2s1	>500 µg/mL
S=C(S)N1CCCC1	4.09 µg/mL

For reference, 4 entries again:

smiles,value
Clc1ccc(/C(Cn2ccnc2)=N\OCc2ccc(-c3ccccc3)cc2)cc1,6 µg/mL
CO[C@H]1/C=C/O[C@@]2(C)Oc3c(C)c(OC(C)=O)c4c(c3C2=O)C(=O)C=C(NC(=O)/C(C)=C\C=C\[C@H](C)[C@H](O)[C@@H](C)[C@@H](O)[C@@H](C)[C@H](OC(C)=O)[C@@H]1C)C4=O,1.73 µg/mL
O=P(O)(O)Oc1c(O)c2ccccc2c2ccccc12,0.38 µg/mL
CCCCCCCCCCCCCCCCC(=O)OC[C@H]1O[C@@H](O[C@H]2CC[C@@]3(C)C(=CC[C@H]4[C@@H]5CC[C@H]([C@H](C)CC[C@@H](CC)C(C)C)[C@@]5(C)CC[C@@H]43)C2)[C@H](O)[C@@H](O)[C@@H]1O,>102 µg/mL